Measured data: PubChem BioAssay AID1224833 (University of Georgia, 2016)
Screen: 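Host factors restraining rotavirus as candidate antiviral genes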 (primary screen). Cells: monkey MA104 kidney cells. Knock-down reagent: siRNA pool against human genes, 50 nM. Duration: 48 h knock-down before infection; read 24 h after infection. Treatment: infection with rotavirus strain RV3 two days after transfection; infectious dose for this stage not given. Read-out: 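Rotavirus antigen per well by fluorescent immunoassay, normalised to non-targeting control wells on each plate and given as a standard z-score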. Scale: z-score vs non-targeting control: higher = more rotavirus replication than with non-targeting control. Hit rule: In these data the active calls have z-score vs non-targeting control at about -1 or lower, or at about 1 or higher. Calls: active = z-score beyond 1 either way; inactive = z-score within 1 of zero.
The deposit covers about 12,000 reagents; shown is an unselected part. About 5,600 of them (46%) were called active. 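Active calls cover z-scores past 1 in both directions, so they include lowered as well as raised rotavirus replication.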 Reagent sequences are not shown.

Gene	PubChem SID	z-score vs non-targeting control	call
ECM2	SID329573464	-0.761	inactive
HACL1	SID329578298	-1.15	active
CDH9	SID329573110	-0.678	inactive
PITHD1	SID329580155	0.627	inactive
DKK4	SID329578497	1.16	active
MBD3L1	SID329581878	-1.42	active
CRTC1	SID329577964	-1.51	active
APEX1	SID329572782	-0.645	inactive
SLC30A8	SID329583301	-0.583	inactive
SPANXC	SID329580654	0.972	inactive
TSPAN10	SID329581470	-0.404	inactive
APPL2	SID329579632	-1.09	active
CD209	SID329578775	-0.724	inactive
ZNF483	SID329583150	-0.37	inactive
CELF5	SID329580492	-0.634	inactive
MEST	SID329574429	-1.09	active
VPS33A	SID329580746	0.389	inactive
OR10H4	SID329582553	-3.78	active
ANGPTL5	SID329583690	1.3	active
NDUFAB1	SID329574570	-0.788	inactive
TMEM129	SID329582063	-1.29	active
PSMD4	SID329574994	0.189	inactive
GIP	SID329573765	-1.04	active
ZNF318	SID329578151	-0.573	inactive
STXBP2	SID329575521	0.761	inactive
VPS4A	SID329578526	-1.15	active
MDH1	SID329574416	-0.844	inactive
POU3F2	SID329574912	0.666	inactive
SNAI2	SID329575389	0.633	inactive
VPS4B	SID329576639	0.798	inactive
RPS7	SID329575190	-2	active
KRTAP1-3	SID329581364	-1.17	active
GAS6	SID329573723	-1.69	active
REG4	SID329581497	1.02	active
OR4K15	SID329581283	0.638	inactive
TMEM245	SID329578121	-0.259	inactive
SYNE3	SID329583193	0.939	inactive
MYT1L	SID329577778	-1.41	active
DNALI1	SID329575946	0.922	inactive
DDX10	SID329573386	-2.55	active
CDH11	SID329573112	-0.0584	inactive
DEDD	SID329576472	-1.57	active
IPO8	SID329577216	-0.981	inactive
BAZ2A	SID329577583	-0.884	inactive
GLS	SID329573781	-0.849	inactive
ZNF697	SID329581979	0.749	inactive
DHTKD1	SID329579738	-0.664	inactive
NKX2-5	SID329573303	-2.09	active
OR51B4	SID329580874	-1.89	active
VTI1B	SID329577195	0.958	inactive
NIN	SID329578962	-2.82	active
ATG9B	SID329583960	-0.29	inactive
KHDC3L	SID329583104	1.16	active
MSH4	SID329574486	-1.02	active
APC2	SID329577086	0.677	inactive
SLC4A1	SID329575349	0.783	inactive
MYL7	SID329580420	-0.794	inactive
RRAD	SID329575207	1.27	active
SIPA1L3	SID329577806	-1.05	active
LGALS8	SID329574294	-1.66	active
PSMA6	SID329574978	1.26	active
NTMT1	SID329578629	-0.663	inactive
WDR91	SID329578640	-1.21	active
ZNF101	SID329582134	-0.194	inactive
TIMM13	SID329578397	0.321	inactive
ZNF256	SID329577010	-0.945	inactive
PCNX4	SID329580640	-1.27	active
CBX5	SID329578005	-0.322	inactive
NMU	SID329577397	-2.01	active
STARD8	SID329576772	0.819	inactive
MSH5	SID329574487	0.716	inactive
ZFP36L2	SID329572941	0.157	inactive
ITGB4	SID329574192	1.87	active
NSDHL	SID329578819	-1.06	active
IFNA7	SID329574100	0.211	inactive
SLC35C1	SID329579704	-0.747	inactive
BCL10	SID329576349	2.07	active
BTG3	SID329577446	-0.145	inactive
TSSC4	SID329576950	-0.173	inactive
MRAS	SID329577660	1.41	active
SOHLH1	SID329584512	0.277	inactive
FCF1	SID329578890	0.364	inactive
ANK2	SID329572768	1.6	active
FUT6	SID329573697	1.6	active
ZCCHC2	SID329579442	0.121	inactive
PKD1L1-AS1	SID329581138	1.24	active
BATF	SID329577223	-1.06	active
PRB2	SID329584702	-1.92	active
NEUROG2	SID329580535	-0.402	inactive
PLD1	SID329574858	1.08	active
MYEF2	SID329578815	-0.842	inactive
COL4A6	SID329573203	-0.896	inactive
RBM42	SID329580858	1.24	active
ZMYM3	SID329576475	-0.0062	inactive
TIMMDC1	SID329579010	-1.92	active
SLC30A1	SID329575938	-0.721	inactive
LY6G6C	SID329581241	-1.22	active
CFD	SID329573395	1.22	active
RIMS2	SID329576737	-1.18	active
KTI12	SID329582176	1.24	active
TMC1	SID329582352	-0.167	inactive
PROM2	SID329583024	-1.1	active
SRPX2	SID329578556	0.21	inactive
CPZ	SID329576159	0.865	inactive
BCL2L14	SID329580880	1.13	active
ERAP2	SID329580588	1.42	active
ZNF598	SID329581975	-1.08	active
TRIT1	SID329579395	-2.05	active
EIF5	SID329573515	-0.608	inactive
CYBC1	SID329580885	1.46	active

Laid out differently: 19 of the entries above.
Gene | PubChem SID | z-score vs non-targeting control | call
ZNF318 | SID329578151 | -0.573 | inactive
STXBP2 | SID329575521 | 0.761 | inactive
VPS4A | SID329578526 | -1.15 | active
MDH1 | SID329574416 | -0.844 | inactive
POU3F2 | SID329574912 | 0.666 | inactive
SNAI2 | SID329575389 | 0.633 | inactive
VPS4B | SID329576639 | 0.798 | inactive
RPS7 | SID329575190 | -2 | active
KRTAP1-3 | SID329581364 | -1.17 | active
GAS6 | SID329573723 | -1.69 | active
REG4 | SID329581497 | 1.02 | active
OR4K15 | SID329581283 | 0.638 | inactive
TMEM245 | SID329578121 | -0.259 | inactive
SYNE3 | SID329583193 | 0.939 | inactive
MYT1L | SID329577778 | -1.41 | active
DNALI1 | SID329575946 | 0.922 | inactive
DDX10 | SID329573386 | -2.55 | active
CDH11 | SID329573112 | -0.0584 | inactive
DEDD | SID329576472 | -1.57 | active
